Laboratory results from patent US8309554B2 (priority 2008, dated 2012).

How the values were obtained:
[1] = system: H460 non small cell lung xenograft; test: H460 non small cell lung xenograft mouse model, tumor growth delay; assay type: in vivo; settings: 25 mg/kg in saline, i.v. on day 1 and day 8

In the case of “3-(4-(N,N-bis-(2-Chloroethyl)amino)phenoxysulfonyl-(2-(lysylamino)pyridine-5-yl-methyl))methyl-2-nitrothiophene”, the “tumor growth delay to 500 mm^3” value [1] is reported as 6 days and the water solubility (Water solubility) is reported as “freely water soluble”.
